Source: PMC5158083 (PLoS Pathogens, 2016)
pIC50: −log10 of the molar value.

The chains behind the UniProt entries cited, without tags or fusion partners. Residues count along the entry.
UniProt J9VS02, 99-455 limits assumed: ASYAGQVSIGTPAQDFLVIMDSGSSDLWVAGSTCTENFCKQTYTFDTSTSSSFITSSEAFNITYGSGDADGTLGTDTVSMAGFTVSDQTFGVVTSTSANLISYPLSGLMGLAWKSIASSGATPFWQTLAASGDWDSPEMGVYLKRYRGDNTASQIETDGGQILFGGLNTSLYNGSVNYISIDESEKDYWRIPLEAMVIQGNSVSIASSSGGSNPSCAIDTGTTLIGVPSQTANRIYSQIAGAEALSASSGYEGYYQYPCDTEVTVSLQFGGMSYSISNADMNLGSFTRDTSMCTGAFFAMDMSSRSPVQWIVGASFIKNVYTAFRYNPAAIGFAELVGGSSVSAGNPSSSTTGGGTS

Molecular target: May1 (Cryptococcus neoformans, UniProt J9VS02)
Experiment: May1 inhibition, fluorogenic IQ-2 assay (screen and IC50)
Assay type: biochemical
Details: for % May1 inhibition at 1 uM: 1 uM inhibitor, substrate IQ-2

CC(C)[C@@H]1NC(=O)C[C@H](O)[C@H](Cc2ccc(O)cc2)NC(=O)CCCCCCCCCCCNC1=O
% May1 inhibition at 1 uM: 100% | pIC50 (read-out: IC50 against May1, 14.6 nM May1, 10 μM IQ-2, 100 mM MES 100 mM NaCl pH 4.5, 10 min preincubation): 7.39

NC(=O)[C@H](CCc1ccccc1)NC(=O)[C@H](CCC(=O)O)NC(=O)C[C@H](O)[C@H](Cc1ccccc1)NC(=O)OCc1ccccc1
% May1 inhibition at 1 uM: 100%
